Target: CD30 expressed on A431/CD30 transfected cells (human) (UniProt P28908)
Experiment: cell-based or functional assay

“T427(di)-PE38 (T427 Inclonal with PE38 fused to the antibody heavy chain) (from UniProt P11439 278-638)” was tested, and the IC50 of cell growth inhibition (MTT assay, 48 h, A431/CD30 cells) was 0.03 nM.
